Here are results for two molecules from paper PMC3612826, “Structural-Functional Analysis of 2,1,3-Benzoxadiazoles and Their N-oxides As HIV-1 Integrase Inhibitors” (Acta Naturae, 2013).

SMILES strings stand for the structures. Like-named read-outs stand apart in the source and are kept apart here. Only a part of the results on these compounds is given; other tests are left out.

Assay [1] deals with wild-type HIV-1 IN (Human immunodeficiency virus type 1 group M subtype B, UniProt P12497). In words: Inhibition of the strand transfer reaction, wild-type IN. It is filed as biochemical.
In assay [2] the target is recombinant HIV-1 IN (Human immunodeficiency virus type 1 group M subtype B, UniProt P12497). As to the kind of experiment: Inhibition of the 3'-end processing reaction. The format is biochemical. To be noted: read-out: Inhibitory activity, IC50, 3'-processing; IN 100 nM, U5B/U5A duplex 3 nM, […] MgCl2, 37°C, 2 h.
The target of assay [3] is HIV-1 IN N155H mutant (Human immunodeficiency virus type 1 group M subtype B, UniProt P12497, N1302H). In words: Inhibition of the strand transfer reaction, Raltegravir-resistant mutant IN.
Assay [4] has as its target HIV-1 IN Q148K/G140S mutant (Human immunodeficiency virus type 1 group M subtype B, UniProt P12497, G1287S/Q1295K). Described as above.
Setting [5] is: read-out: Inhibitory activity, IC50, strand transfer, IN 100 nM, U5B-2/U5A duplex 10 nM, […] MgCl2.

For `Cc1c([N+](=O)[O-])cc([N+](=O)[O-])c2no[n+]([O-])c12`, the “Strand transfer inhibited more efficiently than 3'-processing, times” value in assay [1] (ratio of Table 1 IC50 values) is reported as 6–7 times. In addition, the IC50 in assay [1] (read-out: Inhibitory activity during the strand transfer reaction, wild-type, IC50, wild-type IN) amounted to 300 nM; in assay [1] (setting [5]), 300 nM; in assay [2] it was 2 µM; in assay [3] (read-out: Inhibitory activity during the strand transfer reaction, N155H mutant, IC50), 600 nM; in assay [4] (read-out: Inhibitory activity during the strand transfer reaction, Q148K/G140S mutant, IC50) it was 500 nM. Also, the “Inhibitory activity during the strand transfer reaction, wild-type, IC95” value in assay [1] (wild-type IN, 95 % suppression) came to 6.8 ± 1.1 µM. Further, the “Inhibitory activity during the strand transfer reaction, N155H mutant, IC95” value in assay [3] (95 % suppression) turned out to be 7.6 ± 1.3 µM. Further, in assay [4] (95 % suppression), the “Inhibitory activity during the strand transfer reaction, Q148K/G140S mutant, IC95” value worked out at 1.0 ± 0.4 µM.

On to `O=[N+]([O-])c1cc([N+](=O)[O-])c2no[n+]([O-])c2c1`, for which the IC50 in assay [1] (setting [5]) was found to be 500000 nM; in assay [2], 400 µM.
